## PSTVd loop 27 mutant pool in Nicotiana benthamiana

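Three N. benthamiana plants were inoculated with the whole mutant pool. Progeny were sequenced from the inoculated region (day 5), the margin of the inoculated leaf (day 10) and systemic leaves (day 12).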

The pool varies loop 27 of the PSTVd intermediate strain in the pattern UNNNNA; wild type is UUUUCA (5' to 3', with the closing base pair).

Numbers give reads per thousand; 0 = not seen among the reads, higher = more abundant. Each value is the mean of three plants. "Pool" is the share in the plasmid pool used as inoculum, on the same scale. The inoculated region was read from the minus strand, the other sites from the plus strand. Sequences that differ at fixed positions probably stem from PCR or sequencing errors, and defective variants can be carried along by functional ones. For reference, wild type rose from 39.4 per thousand in the pool to 155, 124, 130 (inoculated region), 823, 907, 920 (leaf margin) and 805, 787, 933 (systemic leaves). With 30,013-65,426 reads a sample, very low values are single reads.

sequence	pool	inoculated region	leaf margin	systemic leaves
AAAACA	0.0136	0	0	0
AAAAUA	0.0136	0	0	0
AGGGUA	0.0136	0	0	0
AUUGAA	0.0136	0	0	0
CCCACA	0.0136	0	0	0
GAAUUA	0.0136	0.00546	0	0
GGAUAA	0.0136	0.00546	0	0
GUGGAA	0.0136	0.00588	0	0
GUUGUA	0.0272	0.0122	0	0
UAAAUA	2.00	0.477	0.0829	0.0428
UAAGCA	3.02	1.45	0.202	0.0515
UAAGGA	1.28	0.335	0.0101	0.0102
UAAGUA	5.08	2.01	0.265	0.0962
UAAUGA	6.32	2.31	0.507	0.0680
UACAAA	2.83	2.16	0.217	0.0617
UACCCA	1.24	0.285	0.0187	0
UAGCAA	2.66	2.85	0.109	0.0692
UAGGAC	0.0136	0.0126	0	0
UAGGCA	2.05	0.952	0.133	0.0352
UAGGGA	6.23	1.44	0.197	0.0643
UAGUAA	1.89	2.40	0.327	0.0719
UAGUCA	2.00	2.68	0.177	0.0895
UAGUUA	4.90	7.79	1.15	0.113
UAUAAA	5.60	3.85	0.722	0.139
UAUAUA	3.42	0.847	0.103	0.0481
UAUCUA	2.97	2.58	0.0797	0.0835
UCAAUA	6.10	4.28	0.240	0.0692
UCAGCA	1.72	0.595	0.0500	0.0182
UCAGGA	2.62	1.02	0.241	0.0338
UCCAGA	2.27	1.64	0.0187	0.0626
UCCCCA	0.543	0.0285	0.207	0.00656
UCCCGA	1.59	0.377	0.123	0.00536
UCGCGA	3.90	1.85	0.851	0.00536
UCGUAA	2.85	4.48	1.02	0.123
UCUAGA	1.85	0.688	0.0313	0.0155
UCUCCA	2.28	1.75	0.0524	0.0287
UCUUAA	5.94	4.41	0.642	0.0690
UGCACA	0.448	0.217	0.0101	0
UGCAUA	4.58	4.15	0.0804	0.0432
UGCCUA	2.13	0.816	0.0424	0.00656
UGCUGA	2.05	2.41	0.0323	0.0233
UGGACA	2.11	0.786	0.0475	0.0224
UGGAGA	7.17	2.86	0.542	0.129
UGGCAA	3.23	1.48	0.265	0.0248
UGGGGC	0.584	0.0940	0.131	0.00536
UGGGUA	6.97	2.63	0.159	0.0546
UGUGAA	6.08	5.50	0.441	0.0687
UGUGCA	3.23	0.998	0.0485	0.0886
UGUGUA	8.73	10.1	0.626	0.197
UGUUCA	3.27	5.27	0.885	0.980
UUAAUA	3.84	3.59	0.539	0.0711
UUAGAA	6.44	2.40	0.300	0.0639
UUAUGA	4.86	4.25	0.182	0.113
UUCCAA	1.36	0.631	0	0
UUCGAA	2.49	1.64	0.0504	0.0592
UUCGCA	3.06	1.68	0.0940	0.0218
UUCUUA	6.32	4.87	0.341	0.138
UUGAAA	2.73	2.75	0.364	0.0627
UUGAGA	5.43	4.32	0.380	0.0879
UUGCGA	5.15	3.44	0.360	0.0505
UUGGUC	0.0136	0	0	0
UUUGGA	6.52	6.70	0.629	0.106

The last 5 entries again:

sequence,pool,inoculated region,leaf margin,systemic leaves
UUGAAA,2.73,2.75,0.364,0.0627
UUGAGA,5.43,4.32,0.380,0.0879
UUGCGA,5.15,3.44,0.360,0.0505
UUGGUC,0.0136,0,0,0
UUUGGA,6.52,6.70,0.629,0.106

Values reported by Wu et al. 2024 (doi:10.1371/journal.ppat.1012142).